Literature values as cited in US20120034296A1 (priority 2009, published 2012).

Tested on: nerve
Conditions: without epinephrine; cited from earlier work

Structure (SMILES): NC1=N[C@H](O)[C@H]2[C@H]3O[C@]4(O)O[C@@H]([C@@H](O)[C@@]2(N1)[C@@H]4O)[C@]3(O)CO
- toxicity in sciatic nerve block: considerable toxicity at the most effective doses
